Measurements reported in article PMC8308672, “Bioactive Compounds from Euphorbia usambarica Pax. with HIV-1 Latency Reversal Activity” (Pharmaceuticals, 2021).

System: latent HIV-1
Test: HIV-1 latency reversal activity, GFP expression of J-Lat 10.6 cells
Format: cell-based
Details: compared to crotignoid K (13)
Procedure: Figure 1 HIV-1 latency reversal activity of methanolic crude extract (EU), partitioned n-hexane (EU-H), dichloromethane (EU-C), ethyl acetate (EU-E), and water-soluble residue (EU-W) phases. (A) dose-response experiments conducted with Jurkat T cells that were latently infected with full-length HIV-1 reporter construct (J-Lat 10.6 cells), HIV-1 reactivation quantified as % of positive control (PMA); (B) cell viability of each sample at 10, 50, 100, 500, and 1000 μg/mL.
Jurkat cells with a full-length integrated HIV-1 provirus that have been modified to contain a GFP coding region in place of the env gene (J-lat 10.6 cells) were used for HIV-1 anti-latency activity, cytotoxicity, and cellular activation testing. All 31 compounds were tested at 1, 10, and 100 μM. […] These compounds were further tested at additional concentrations to determine dose response and toxicity curves (Figure 5A–F). Cell viability for all isolated compounds is presented in Figure S106 in the supplementary material.
The HIV-1-infected Jurkat T cell line (J-Lat 10.6) was obtained in January 2019 from the NIH/ATCC HIV-1 Reagent Program (www.hivreagentprogram.org) and cultured in RPMI-based media supplemented with 10% fetal calf serum, 1% penicillin, and 1% streptomycin. […]

For CC(=O)O[C@@]12[C@H](OC(=O)c3ccccc3)[C@@H](C)[C@]3(O)[C@@H]4C=C(C)C(=O)[C@H]4CC(CO)=C[C@H]3[C@@H]1C2(C)C [Compound 14, 4β-Crotignoid K], the “fold difference in EC50 of latency reversal, 14 versus 13” value was 250 fold and ~ 250 fold.

Several values for one entry are separate records, joined by “and”; a condition that tells them apart may be missing. Equal entries are not always repeated.
